## Potato spindle tuber viroid, stem 3: variant abundance in plants

From the data files of Wu et al. 2024, doi:10.1371/journal.ppat.1012142.

The pool varies stem 3 of the PSTVd intermediate strain in the pattern GUGGUUCCGNANNCNN; wild type is GUGGUUCCGGAACCGC (upper and lower strand joined, each 5' to 3', the first 8 letters being the upper strand).

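A pool of all variants was put on leaves of three Nicotiana benthamiana plants. Progeny were sequenced from the inoculated region (day 5), the margin of the inoculated leaf (day 10) and systemic leaves (day 12).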

Values are reads per thousand in the sample; higher means more abundant, 0 means not found.
Each value is the mean of three plants.
"Pool" is the share in the plasmid pool used as inoculum, on the same scale.
The inoculated region was read from the minus strand, the other sites from the plus strand.
Sequences that differ at fixed positions probably stem from PCR or sequencing errors, and defective variants can be carried along by functional ones.
With 27,691-54,225 reads a sample, very low values are single reads.
Wild type was 17.3 per thousand in the pool and the most common sequence in every sample (inoculated region 330, 345, 235; leaf margin 794, 766, 816; systemic leaves 830, 792, 869).

| # | sequence | pool | inoculated region | leaf margin | systemic leaves |
|---|---|---|---|---|---|
| 1 | GUGGGUCCGUAGGCGU | 0.0154 | 0.00901 | 0 | 0 |
| 2 | GUGGUUCCGAAAACAC | 2.28 | 1.53 | 0.0226 | 0.124 |
| 3 | GUGGUUCCGUAAACCG | 0.585 | 0.270 | 0.0307 | 0 |
| 4 | GUGGUUCCGCAGACCG | 0.693 | 0.340 | 0.0120 | 0 |
| 5 | GUGGUUCCGAAUCCUU | 0.846 | 0.761 | 0 | 0.0246 |
| 6 | GUGGUUCCGAAUCCCG | 1.26 | 0.344 | 0.0226 | 0 |
| 7 | GUGGUUCCGGAUCCAC | 1.09 | 0.378 | 0 | 0 |
| 8 | GUGGUUCCGCAGGCAG | 0.662 | 0.711 | 0.108 | 0 |
| 9 | GUGGUUCCGAAGACGC | 0.893 | 0.712 | 0.0226 | 0 |
| 10 | GUGGUUCCGGACGCUG | 1.31 | 0.595 | 0.00944 | 0 |
| 11 | GUGGUUCCGGAACCCG | 1.08 | 0.326 | 0 | 0 |
| 12 | GUGGUUCCGGAUGCAC | 1.22 | 0.444 | 0.0106 | 0 |
| 13 | GUGGUUCCGCACACAA | 1.59 | 0.646 | 0.0120 | 0.0621 |
| 14 | GUGGUUCCGGAGCCGG | 0.800 | 0.226 | 0.0453 | 0 |
| 15 | GUGGUUCCGAAGGCCC | 1.63 | 1.07 | 0.441 | 0.0328 |
| 16 | GUGGGUCCGGAUCCGG | 0.0154 | 0 | 0 | 0 |
| 17 | GUGGGUCCGUAUUCCA | 0.0154 | 0 | 0 | 0 |
| 18 | GUGGUUCCGGAUACUC | 0.831 | 0.369 | 0.0241 | 0 |
| 19 | GUGGUUCCGCAAUCUG | 0.708 | 0.392 | 0.0241 | 0 |
| 20 | GUGGUUCCGUACUCGU | 0.908 | 0.801 | 0.0120 | 0 |
| 21 | GAGGUUCCGUAUGCUG | 0.0154 | 0 | 0 | 0 |
| 22 | GUGGUUCCGAAGACGG | 0.846 | 0.672 | 0.0226 | 0 |
| 23 | GUGGUUCCGCAUACGU | 0.800 | 0.419 | 0 | 0 |
| 24 | GUGGUUCCGCAUUCCU | 0.877 | 0.821 | 0 | 0 |
| 25 | GUGGUUCCGUAGUCAG | 0.800 | 0.685 | 0.578 | 0 |
| 26 | GUGGUUCCGUAUACCA | 0.954 | 0.408 | 0.0226 | 0 |
| 27 | GUGGUUCCGGACCCGG | 2.08 | 0.802 | 0.282 | 0.0310 |
| 28 | GUGGUUCCGCAGGCCU | 0.693 | 0.773 | 0.154 | 0 |
| 29 | GUGGUUCCGUAAACCA | 1.11 | 0.553 | 0.116 | 0.0186 |
| 30 | GUGGUUCCGUAAUCAA | 0.846 | 0.876 | 0.0120 | 0 |
| 31 | GUGGUUCCGUAUACUC | 1.06 | 0.353 | 0.0226 | 0.0311 |
| 32 | GUGGUUCCGAAGCCGG | 0.877 | 0.690 | 0 | 0 |
| 33 | GUGGUUCCGGAUACGU | 0.893 | 0.706 | 0.287 | 0 |
| 34 | GUGGUUCCGCAUACCU | 0.985 | 0.274 | 0 | 0 |
| 35 | GUGGUUCCGGAAACCC | 0.816 | 0.442 | 0.00944 | 0 |
| 36 | GUGGUUCCGAAGGCCG | 1.17 | 1.45 | 0.207 | 0 |
| 37 | GUGGUUCCGUAAGCCU | 1.85 | 0.717 | 0 | 0.0578 |
| 38 | GUGGUUCCGAAAGCUC | 0.893 | 0.292 | 0.0106 | 0 |
| 39 | GUGGUUCCGGAGCCCU | 1.05 | 0.703 | 0.0106 | 0 |
| 40 | GUGGUUCCGGAAGCUC | 0.769 | 0.351 | 0.0241 | 0.0124 |
| 41 | GUGGUCCCGGAGCCCA | 0.0154 | 0 | 0 | 0 |
| 42 | GUGGUUCCGAAGCCUC | 1.08 | 0.781 | 0.0106 | 0 |
| 43 | GUGGUUCCGAAUUCUC | 0.846 | 0.760 | 0 | 0.0123 |
| 44 | GUGGUUCCGUAAUCGU | 0.754 | 0.767 | 0.0937 | 0 |
| 45 | GUGGGUCCGAAUGCAC | 0.0154 | 0.00888 | 0 | 0 |
| 46 | GUGGUUCCGUAUACGA | 0.893 | 0.256 | 0 | 0 |
| 47 | GUGGUUCCGUAGGCCA | 0.970 | 0.303 | 0 | 0 |
| 48 | GUGGUUCCGGAAGCAC | 0.662 | 0.253 | 0 | 0 |
| 49 | GUGGUUCCCUAAGUUG | 0.400 | 0.192 | 0 | 0 |
| 50 | GUGGUUCCGCAACCUU | 0.800 | 0.305 | 0 | 0.00811 |
| 51 | GUGGUUCCGCACACUG | 0.693 | 0.362 | 0.0120 | 0 |
| 52 | GUGGUUCCGCAUUCUA | 0.846 | 0.224 | 0.0106 | 0 |
| 53 | GUGGUUCCGAACGCAU | 0.616 | 0.815 | 0.00944 | 0 |
| 54 | GUGGUUCCGGAGGCUG | 1.11 | 0.369 | 0.0226 | 0 |
| 55 | GUGGUUCCGGAUGCUG | 0.939 | 0.356 | 0.0106 | 0.0559 |
| 56 | GUGUUUCCGGAUACGU | 0.0154 | 0 | 0 | 0 |
| 57 | AUGGUUCCGGACUCUC | 0.0154 | 0 | 0 | 0 |
| 58 | GUGGUUCCGCAACCUC | 0.785 | 0.324 | 0.0120 | 0 |
| 59 | GUGGUUCCGCACGCUC | 0.800 | 0.369 | 0.0120 | 0 |
| 60 | GUGGUUCCGGAACCUC | 0.939 | 0.852 | 0.651 | 0.760 |

The first 4 entries again:

sequence,pool,inoculated region,leaf margin,systemic leaves
GUGGGUCCGUAGGCGU,0.0154,0.00901,0,0
GUGGUUCCGAAAACAC,2.28,1.53,0.0226,0.124
GUGGUUCCGUAAACCG,0.585,0.270,0.0307,0
GUGGUUCCGCAGACCG,0.693,0.340,0.0120,0